Pooled drug test results. Numbers come from NIAID ChemDB, via PubChem.

Common to all: tests in culture; species: HIV-1; cell line: C8166; read-out: EC50

Two numbers with a dash give a range or band.

structure	strain	changes	read by	value
CC(C)OC(=O)OCOP(=O)(CO[C@H](C)Cn1cnc2c(N)ncnc21)OCOC(=O)OC(C)C	RF	V82F/184V	p24 / ELISA	0.07534 µM
CCN1c2ncc(CCOc3ccc(-c4cccc(C(=O)O)c4)cc3)cc2C(=O)N(C)c2cccnc21	-	RT-K103N Y181C	p24	0.01–0.05 µM
C/C=C/C(=O)O[C@@H]1[C@@H](C)[C@@]2(O)[C@@H](C=C(CO)C[C@]3(O)C(=O)C(C)=C[C@@H]23)[C@@H]2C(C)(C)[C@]12O	IIIB	-	p24 / ELISA	>200 µM
CCN1c2ncc(CCOc3ccc(NC(=O)CC(C)(C)C(=O)O)cc3C)cc2C(=O)N(C)c2cccnc21	-	RT-K103N Y181C	p24	0.01–0.05 µM
CC1=C[C@H]2[C@@]3(O)[C@H](C)[C@@H](O)[C@]4(OC(=O)/C=C/c5ccccc5)[C@H]([C@@H]3C=C(CO)C[C@]2(O)C1=O)C4(C)C	IIIB	-	p24 / ELISA	6.655 µM
CCc1ccc(-c2c(C(OC3(C)CCC3)C(=O)O)c(C)nc3ccc(Cl)cc23)cc1	-	-	luciferase / reporter gene	<20 µM
CCN1c2ncc(CCOc3ccc(C(=O)Nc4ccc(C(=O)O)cn4)cc3C)cc2C(=O)N(C)c2cccnc21	-	RT-K103N Y181C	p24	0.01–0.05 µM
CCCCCCCCCCCCCCCCCCCC(=O)O[C@@H]1[C@@H](C)[C@@]2(O)[C@@H](C=C(COC(C)=O)C[C@]3(O)C(=O)C(C)=C[C@@H]23)[C@@H]2C(C)(C)[C@]12O	IIIB	-	p24 / ELISA	>200 µM
C=C(C)COC(C(=O)O)c1c(C)nc2ccc(Br)cc2c1-c1ccc(Cl)cc1	-	-	luciferase / reporter gene	<20 µM
CCN1c2ncc(CCOc3ccc(Nc4ccc(C(=O)O)cc4)cc3C)cc2C(=O)N(C)c2cccnc21	IIIB	-	p24	<0.01 µM
CCCC(C(=O)O)c1c(C)nc2ccc(Cl)cc2c1-c1ccc(OC)cc1	-	-	luciferase / reporter gene	<20 µM
CC(=O)O[C@@]12[C@H](OC(=O)CCCCC3SCC4NC(=O)NC43)[C@@H](C)[C@@]3(O)[C@@H](C=C(CO)C[C@]4(O)C(=O)C(C)=C[C@@H]34)[C@@H]1C2(C)C	IIIB	-	p24 / ELISA	>200 µM
CCCC(C(=O)O)c1c(C)nc2ccc(Cl)cc2c1-c1ccc(C2CC2)cc1	-	-	luciferase / reporter gene	<20 µM
CC/C=C\C/C=C\C/C=C\C/C=C\C/C=C\C/C=C\CCC(=O)O[C@@H]1[C@@H](C)[C@@]2(O)[C@@H](C=C(COC(C)=O)C[C@]3(O)C(=O)C(C)=C[C@@H]23)[C@@H]2C(C)(C)[C@]12O	IIIB	-	p24 / ELISA	15.66 µM
CCN1c2ncc(CCOc3ccc(C(=O)N=c4ccccn4O)cc3C)cc2C(=O)Nc2c(C)ccnc21	IIIB	-	p24	<0.01 µM
Cc1ccc(-c2c(C(OC(C)C)C(=O)O)c(C)nc3ccc(Cl)cc23)cn1	-	-	luciferase / reporter gene	<20 µM

Repeating the final 2 entries:

structure	strain	changes	read by	value
CCN1c2ncc(CCOc3ccc(C(=O)N=c4ccccn4O)cc3C)cc2C(=O)Nc2c(C)ccnc21	IIIB	-	p24	<0.01 µM
Cc1ccc(-c2c(C(OC(C)C)C(=O)O)c(C)nc3ccc(Cl)cc23)cn1	-	-	luciferase / reporter gene	<20 µM

Blank or dashed fields: not listed here. ECn: concentration that inhibits the pathogen or its effect by n%. Conditions beyond the fields shown may differ between rows.